For one compound, IC50 results are on record in PubChem BioAssay AID1159559 (GlaxoSmithKline (GSK), 2015).

The assay deals with T. cruzi Tulahuen in NIH-3T3, beta-gal fluorescence, 4 d. Briefly: T. cruzi intracellular growth inhibition, cell-based (AID 1159559).

Consider `CC(C)(C)c1ccc(NC2(C(N)=O)CCN(Cc3ccccc3)CC2)cc1`, for which the IC50 was 320 nM.
